Measured values reported in article PMC8950828 (Viruses, 2022).

Columns and labels:
SARS-CoV-2 = details: 13 passages of SARS-CoV-2, RdRp mutation E802D; cited from earlier work
HCoV-229E = experiment: Serial passaging of HCoV-229E with rocaglates and challenge experiment; details: MRC-5 cells, increasing concentrations 5–10 nM, p15 vs p0

Compound | resistance after passaging (SARS-CoV-2) | sensitivity of virus passaged 15 times to rocaglates (HCoV-229E)
CCC(CC)COC(=O)[C@H](C)N[P@](=O)(OC[C@H]1O[C@@](C#N)(c2ccc3c(N)ncnn23)[C@H](O)[C@@H]1O)Oc1ccccc1 | partial resistance | –
CONC(=O)[C@H]1[C@@H](O)[C@@]2(O)c3c(OC)cc(OC)cc3O[C@@]2(c2ccc(OC)cc2)[C@@H]1c1ccccc1 [CR-1-31-B] | – | remained sensitive
COC(=O)[C@H]1[C@@H](O)[C@@]2(O)c3c(OC)cc(O[C@@H]4O[C@@H]([C@H](O)CO)CO[C@H]4OC)cc3O[C@@]2(c2ccc(OC)cc2)[C@@H]1c1ccccc1 [Silvestrol] | – | remained sensitive
